Pooled drug test results. Numbers come from NIAID ChemDB, via PubChem.

Common to all: host cell toxicity; cell line: MT-4; measure: CC50

An empty or dashed field is not shown. CCn is the concentration with n% toxicity to the cells. Neighbouring rows are from separate reports.

compound	method	result
Cc1cn([C@H]2C[C@H](N=[N+]=[N-])[C@@H](CO)O2)c(=O)[nH]c1=O	-	5.2 µM
N#Cc1nc(N)nc2c1ncn2[C@H]1C[C@H](N=[N+]=[N-])[C@@H](CO)O1	-	>200 µM
CC1(C)CCc2c(O)ccc([C@@H]3COc4cc(O)ccc4C3)c2O1	-	87 µg/mL
Cc1cn(C[C@H]2C[C@@]2(CO)c2ccccc2)c(=O)[nH]c1=O	-	>100 µg/mL
CCOc1nc(N)nc2c1ncn2[C@H]1C[C@H](N=[N+]=[N-])[C@@H](CO)O1	-	>200 µM
Cc1cn([C@H]2C[C@H](F)[C@@H](CO)O2)c(=O)nc1N	-	206 µM
[N-]=[N+]=N[C@H]1C[C@H](n2cnc3c(N4CCC4)nc(N)nc32)O[C@@H]1CO	-	>200 µM
CS(=O)(=O)c1ccc(OP(=O)(OC[C@@H]2CC[C@H](n3cnc4c(N)ncnc43)O2)OC[C@@H]2CC[C@H](n3cnc4c(N)ncnc43)O2)cc1	trypan blue	>250 µM
CNC(C)[C@H]1O[C@H](O[C@@H]2[C@@H](O)[C@H](O[C@@H]3OC[C@@](C)(O)[C@@H](NC)[C@@H]3O)[C@@H](NC(=O)[C@@H](N)CCCN=C(N)N)C[C@H]2NC(=O)[C@@H](N)CCCN=C(N)N)[C@H](NC(=O)[C@@H](N)CCCN=C(N)N)[C@@H](O)[C@@H]1O	-	>1000 µM
Cc1cn([C@H]2C[C@H](N)[C@@H](CO)O2)c(=O)[nH]c1=O	-	206 µM
[N-]=[N+]=N[C@H]1C[C@H](n2cnc3c(NCCc4ccccc4)nc(N)nc32)O[C@@H]1CO	-	<200 µM
Cc1cc(C)nc(NS(=O)(=O)c2ccc(N=C3C(=O)Nc4ccc(Br)cc43)cc2)n1	-	>125 µg/mL
C#Cc1ccc(Nc2nccc(Oc3c(C)cc(-c4cn(-c5ccc(C(=O)O)cc5)nn4)cc3C)n2)cc1	MTT	33.17 µM
CCN(CC)C(=O)N1CCN(C(=O)N2CCOCC2)CC1	MTT	>125 µg/mL
C#Cc1ccc(Nc2nccc(Oc3c(C)cc(-c4cn(Cc5cccc(C(=O)OC)c5)nn4)cc3C)n2)cc1	MTT	4.78 µM
CCCCOC(=O)N1CCN(C(=O)N(CC)CC)CC1	MTT	58.4 µg/mL
C#Cc1ccc(Nc2nccc(Oc3c(C)cc(-c4cn(Cc5ccccc5[N+](=O)[O-])nn4)cc3C)n2)cc1	MTT	7.22 µM
CC(=O)SCCOP(=O)(OCCSC(C)=O)OC[C@@H]1CC[C@H](n2cnc3c(N)ncnc32)O1	-	16 µM
O=c1ccn([C@H]2C[C@H](F)[C@@H](CO)O2)c(=O)[nH]1	-	8.2 µM
Cc1ccc2c(c1)C(=Nc1ccc(S(=O)(=O)Nc3nc(C)cc(C)n3)cc1)C(=O)N2	-	>125 µg/mL
C#Cc1ccc(Nc2nccc(Oc3c(C)cc(-c4cn(CCc5ccccc5)nn4)cc3C)n2)cc1	MTT	5.69 µM
Cc1cn([C@H]2C[C@H](N=[N+]=[N-])[C@@H](CO)O2)c(=O)[nH]c1=O	-	1 µg/mL
CNC(=O)c1cnnn1[C@@H]1O[C@H](CO[Si](C)(C)C(C)(C)C)C2(OS(=O)(=O)C=C2N)[C@H]1O[Si](C)(C)C(C)(C)C	-	28 µM
Nc1ncnc2c1ncn2[C@H]1C=C[C@@H](CO)O1	trypan blue	10 µM
Nc1ncnc2c1ncn2C[C@H]1C[C@@]1(CO)c1ccccc1	-	>100 µg/mL
CS(=O)(=O)c1ccc(OP(=O)(OC[C@@H]2C=C[C@H](n3cnc4c(=O)[nH]cnc43)O2)OC[C@@H]2C=C[C@H](n3cnc4c(=O)[nH]cnc43)O2)cc1	trypan blue	>250 µM
Cc1cn([C@H]2C[C@H](F)[C@@H](CO)O2)c(=O)[nH]c1=O	-	1.1 µM
COc1ccc([C@@H]2COc3c(ccc4c3C=CC(C)(C)O4)C2)c(OC)c1	-	>100 µg/mL
CCN(CC)C(=O)N1CCN(C(=O)N(C)CCN2CCCC2)CC1	MTT	>125 µg/mL
CCN(C)c1nc(N)nc2c1ncn2[C@H]1C[C@H](N=[N+]=[N-])[C@@H](CO)O1	-	>200 µM
Cc1cc(C)nc(NS(=O)(=O)c2ccc(N=C3C(=O)Nc4ccccc43)cc2)n1	-	>125 µg/mL
Nc1nc2c(ncn2[C@H]2C[C@H](F)[C@@H](CO)O2)c(=O)[nH]1	-	185 µM
CSc1nc(N)nc2c1ncn2[C@H]1C[C@H](N=[N+]=[N-])[C@@H](CO)O1	-	>200 µM
CS(=O)(=O)c1ccc(OP(=O)(OC[C@@H]2C=C[C@H](n3ccc(N)nc3=O)O2)OC[C@@H]2C=C[C@H](n3ccc(N)nc3=O)O2)cc1	trypan blue	232 µM
COc1ccc(Oc2coc3cc(OC)c(CC=C(C)C)c(O)c3c2=O)c(OC)c1	-	>100 µg/mL
Nc1ncnc2c1ncn2[C@H]1CC[C@@H](CO)O1	trypan blue	>500 µM
CC(C)=CCc1c(-c2ccc(O)cc2O)oc2cc(O)cc(O)c2c1=O	-	6.9 µg/mL
O=c1[nH]cnc2c1ncn2[C@H]1CC[C@@H](CO)O1	trypan blue	>500 µM
C#Cc1ccc(Nc2nccc(Oc3c(C)cc(-c4cn(Cc5ccc(S(N)(=O)=O)cc5)nn4)cc3C)n2)cc1	MTT	81.64 µM
Cc1cn([C@H]2CC[C@@H](CO)O2)c(=O)[nH]c1=O	trypan blue	>500 µM
CCN(CC)C(=O)N1CCN(C(=O)N(C)CCN2CCCCC2)CC1	MTT	>125 µg/mL

The first 5 rows once more:

compound	method	result
Cc1cn([C@H]2C[C@H](N=[N+]=[N-])[C@@H](CO)O2)c(=O)[nH]c1=O	-	5.2 µM
N#Cc1nc(N)nc2c1ncn2[C@H]1C[C@H](N=[N+]=[N-])[C@@H](CO)O1	-	>200 µM
CC1(C)CCc2c(O)ccc([C@@H]3COc4cc(O)ccc4C3)c2O1	-	87 µg/mL
Cc1cn(C[C@H]2C[C@@]2(CO)c2ccccc2)c(=O)[nH]c1=O	-	>100 µg/mL
CCOc1nc(N)nc2c1ncn2[C@H]1C[C@H](N=[N+]=[N-])[C@@H](CO)O1	-	>200 µM